Converted amounts (≈) assume the structure as drawn.
How the values were obtained:
LecA [1] = target: T1, LecA (Pseudomonas aeruginosa, UniProt Q05097); test: Surface plasmon resonance direct LecA binding assay (immobilized LecA); design: species or system P. aeruginosa; details: SPR; for Kd: kinetic fit
Source text: Therefore, we measured the LecA affinity of thiol derivatives 17, 18, 24 and 25 and disulfides 26a, 26b and 27 using surface plasmon resonance (SPR) with LecA covalently immobilized on a sensor chip via amide coupling (Fig. 5 and Table 1). […] Thiols 17, 18, 24 and 25 reached equilibrium binding within 60 s of interaction with immobilized LecA, followed by their dissociation with moderate off-rates. […] Due to the very small off-rates for 26a, 26b and 27, these values have been calculated based on the response at […] of the injected compound and monitoring their dissociation for 30 min (Fig. S2 ^†). The observed very tight binding to immobilized LecA required optimization of the protein surface regeneration procedure. Effective conditions were identified as one injection of 50 mm isopropyl β-D-thiogalactoside in the running buffer, followed by one injection of 20 mm EDTA disodium salt in water. The regenerated chip surface was controlled using an injection of 1 to ensure that the activity of LecA was maintained.
Surface plasmon resonance direct LecA binding assay
SPR experiments were performed on a Reichert 2-channel SPR SR7500DC (Reichert Technologies Life Sciences, Buffalo, NY, USA) at 25 °C. For LecA immobilization, the surface of a HC1000M sensor chip (XanTec bioanalytics GmbH, Düsseldorf, Germany) was preequilibrated with borate buffer (1 M NaCl, 0.1 M sodium borate pH 9.0), followed by activation of the polycarboxylate hydrogel with 0.2 M N-hydroxysuccinimide (NHS) and 0.4 M 1-ethyl-3-(3-dimethylaminopropyl)carbodiimide hydrochloride (EDC‧HCl) in MilliQ water in both channels for 240 s (flow rate 10 μL/min) until the binding response reached 1200 RU.
Then, LecA (100 μg/mL) in 10 mM sodium acetate pH 3.6 was injected on the activated chip surface of one channel (injection time 420 s, flow rate 10 μL/min) and 6000 RU of LecA were immobilized. Unreacted NHS esters in both channels were blocked with 1 M ethanolamine hydrochloride in MilliQ water pH 8.5 (injection time 360 s, flow rate 10 μL/min).
Test compound stock solutions were prepared in DMSO (20 mM stocks for monovalent LecA inhibitors, 20 µM stocks for divalent LecA inhibitors) and were subsequently diluted in 10 mM phosphate buffer (pH 7.4, 2.7 mM KCl, 137 mM NaCl, 100 μM CaCl2) to obtain solutions with […]
Monovalent inhibitors 17, 18, 24 and 25 were injected for 120 s (flow rate 50 μL/min) at concentrations ranging from 0.39–100 µM. Divalent inhibitors 26a, 26b and 27 were injected for 120 s (flow rate 50 μL/min) at concentrations 50–350 nM. The chip surface was regenerated after each inhibitor injection by one injection of 50 mM IPTG in running buffer (10 mM phosphate buffer, pH 7.4, 2.7 mM KCl, 137 mM NaCl, 100 μM CaCl2, 2% DMSO) followed by one injection 20 mM EDTA disodium salt in MilliQ water, and then followed by three injections of the running buffer (injection time 120 s, flow rate 50 μL/min). 100 µM pNP-Gal (1) in running buffer was injected before each analyte to monitor and ensure chip regeneration and […]
Affinity/equilibrium analysis was performed for 1 on the same chip. A stock solution of 1 (10 mM in PBS/CaCl2 buffer) was prepared, then diluted to the required concentrations in running buffer and injected at 1.56–400 µM (injection time 60 s, flow rate 50 μL/min) without regeneration steps. Data analysis was performed using TraceDrawer software (Ridgeview Instruments) using a 1:1 binding model to fit the experimental data. Spikes at the end of the injections were removed in TraceDrawer during the data analysis.

The chains behind the UniProt entries cited, without tags or fusion partners.
UniProt Q05097, whole entry: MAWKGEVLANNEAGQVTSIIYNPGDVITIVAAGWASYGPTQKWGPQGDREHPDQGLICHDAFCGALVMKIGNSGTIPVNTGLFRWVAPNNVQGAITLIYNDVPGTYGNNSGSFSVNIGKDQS

LecA [2] = target: T1, LecA; test: Competitive binding assay for LecA based on fluorescence polarization; design: species or system P. aeruginosa; details: read-out: IC50 (LecA)
Procedure: The four thiols 17, 18, 24 and 25 as well as three disulfides 26a, 26b and 27 were then evaluated for their activity against LecA using a competitive binding assay based on fluorescence polarization (Fig. 4B). […]
Expression and purification of LasB and LecA
LecA was expressed recombinantly using E. coli pET25-pail, whereas LasB was isolated from P. aeruginosa PA14 culture supernatant as described previously. 1,2
LecA labeling with fluorescein was performed in analogy to Sommer et al. 3 and Beshr et al.4 To this end fluorescein isothiocyanate (FITC) was freshly dissolved in carbonate-bicarbonate buffer with pH of 9.3 at a concentration of 3 mg mL-1. Subsequently, 66 µL of this FITC solution was combined with 1.4 mL of LecA at a concentration of 60 µM in carbonate-bicarbonate buffer, pH 9.3. The resulting mixture was then incubated at 25 °C with shaking at 500 rpm for 1 hour. […]
The procedure for the fluorescence polarization-based competitive binding assay for LecA was performed as reported by Joachim et al. with modifications. […] Fluorescence intensities were recorded on a PheraStar FS plate reader (BMG Labtech GmbH, Germany) and polarization was calculated using MARS Data Analysis (BMG Labtech).
IC50 values were obtained from a four-parameter curve-fitting procedure. Averages and standard deviations were calculated from at least three independent experiments of technical

Kinetic solubility = type: physicochemical; details: 10 mm PBS with 2% DMSO at 37 °C

## O=C(Nc1ccc(S[C@@H]2O[C@H](CO)[C@H](O)[C@H](O)[C@H]2O)cc1)C(Cc1ccccc1)SSC(Cc1ccccc1)C(=O)Nc1ccc(S[C@@H]2O[C@H](CO)[C@H](O)[C@H](O)[C@H]2O)cc1 (single isomer, unassigned) [26a]
LecA [1]
  k a: 3.8 ± 0.8 ×10^4 M^−1 s^−1
  k d: 2.8 ± 0.3 ×10^−4 s^−1
  Kd: 0.0074 µM
LecA [2]
  IC50: 4.7 µM
Kinetic solubility
  kinetic solubility: 300 µM (≈ 270 µg/mL)

## O=C(Nc1ccc(S[C@@H]2O[C@H](CO)[C@H](O)[C@H](O)[C@H]2O)cc1)C(Cc1ccccc1)SSC(Cc1ccccc1)C(=O)Nc1ccc(S[C@@H]2O[C@H](CO)[C@H](O)[C@H](O)[C@H]2O)cc1 (single isomer, unassigned) [26b]
LecA [1]
  k a: 4.6 ± 0.7 ×10^4 M^−1 s^−1
  k d: 3.0 ± 1.2 ×10^−4 s^−1
  Kd: 0.0066 µM
LecA [2]
  IC50: 3 µM
Kinetic solubility
  kinetic solubility: 300 µM (≈ 270 µg/mL)
